For one substance, Kd results are on record in publication PMC9215227, “SARS-CoV-2 N Protein Antagonizes Stress Granule Assembly and IFN Production by Interacting with G3BPs to Facilitate Viral Replication” (2022).

The term Kd denotes the equilibrium constant for the complex coming apart. Low readings indicate higher affinity, high ones lower affinity.

The target in assay [1] is T1, 6×His-Flag-G3BP2, not stated, Q9UN86 1-482.
T1 sequence: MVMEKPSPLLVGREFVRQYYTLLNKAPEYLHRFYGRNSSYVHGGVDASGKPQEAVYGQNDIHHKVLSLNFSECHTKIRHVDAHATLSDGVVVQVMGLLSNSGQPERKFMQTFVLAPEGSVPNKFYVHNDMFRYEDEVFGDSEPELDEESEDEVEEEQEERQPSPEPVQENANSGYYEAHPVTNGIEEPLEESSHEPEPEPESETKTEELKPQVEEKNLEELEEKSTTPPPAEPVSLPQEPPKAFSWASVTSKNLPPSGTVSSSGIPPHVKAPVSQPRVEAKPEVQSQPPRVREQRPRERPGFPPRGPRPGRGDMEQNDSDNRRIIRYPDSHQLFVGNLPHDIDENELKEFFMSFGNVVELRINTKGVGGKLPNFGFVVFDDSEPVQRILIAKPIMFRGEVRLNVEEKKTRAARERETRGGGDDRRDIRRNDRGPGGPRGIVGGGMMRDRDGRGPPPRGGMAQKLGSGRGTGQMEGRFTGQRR
Nature of the assay: SPR. (Surface plasmon resonance follows binding to a sensor surface in real time, without labels.)

In assay [2] the target is 6×His-Flag-G3BP1, not stated, Q13283 1-466. Kind of assay: SPR.

As to “NP of SARS-CoV (catalog no. 40143-V08B, Sino Biological)”, the dissociation constant Kd in assay [1] is 38.5 nM; in assay [2], 25.7 nM.
